A mixed list of measured activities; the numbers were collected in NIAID ChemDB.

Shared fields: toxicity to cultured cells; cell line: C8166; measure: CC50

Blank or dashed fields: not listed here. CCn: concentration that lowers growth or viability of the cells by n%. Rows are shuffled and stem from different studies.

structure,read by,value
COc1cc2c(c(OC)c1OC)-c1c(cc3c(c1OC)OCO3)[C@H](OC(C)=O)[C@H](C)[C@H](C)C2,MTT,97.1 µg/mL
CC(=O)Oc1ccc(COP(=O)(OC[C@@H]2C[C@@H](N=[N+]=[N-])[C@H](n3cc(C)c(=O)[nH]c3=O)O2)OC[C@H]2O[C@@H](n3cc(C)c(=O)[nH]c3=O)C[C@@H]2N=[N+]=[N-])cc1,,125 µM
Cc1nc2ccccc2n(CC(=O)NNC(=O)c2ccc(Cl)cc2)c1=O,MTT,169 µM
COC1=C(OC)C(=O)C23COc4c5c(cc(c42)[C@@H](OC(=O)c2ccccc2)[C@@H](C)[C@@H](C)CC3=C1)OCO5,MTT,69.3 µg/mL
CC(C)Oc1ccc(Cc2ccccc2)cc1C(=O)CC(=O)C(=O)O,resazurin,50 µM
CCCC(=O)OCC1=C[C@H]2[C@@H]3C(C)(C)[C@]3(OC(=O)CCC)[C@H](OC(=O)/C=C/c3ccc(OC)c(OC(C)=O)c3)[C@@H](C)[C@]2(O)[C@@H]2C=C(C)C(=O)[C@@]2(O)C1,MTT,>200 µM
Oc1cc(O)c2c(c1)O[C@H](c1ccc(O)c(O)c1)[C@H](O)C2,,>100 µg/mL
CN[C@@H]1[C@H](O[C@@H]2OC[C@@H](O)[C@H](O)[C@H]2O)[C@@H](O)[C@H](O[C@H]2c3cc(C)c(C(=O)N[C@H](C)C(=O)O)c(O)c3-c3c(cc4c(c3O)C(=O)c3cc(OC)cc(O)c3C4=O)[C@@H]2O)O[C@@H]1C,,>50 µg/mL
Cc1cc(C)cc(S(=O)(=O)c2c(C(N)=O)[nH]c3ccc(Cl)cc23)c1,MTT,14 µM
O=C(O[C@@H]1Cc2c(O)cc(O)cc2O[C@@H]1c1ccc(O)c(O)c1)c1ccccc1,MTT,22.9 µg/mL
O=c1c(O[C@@H]2O[C@H](CO)[C@@H](O)[C@H](O)[C@H]2O)c(-c2ccc(O)cc2)oc2cc(O)cc(O)c12,,100 µg/mL
CC(=O)O[C@@H]1[C@@H](C)[C@@]2(O)[C@@H](C=C(CO)C[C@]3(O)C(=O)C(C)=C[C@@H]23)[C@@H]2C(C)(C)[C@]12OC(C)=O,MTT,>200 µM
Cc1cn([C@H]2C[C@H](N=[N+]=[N-])[C@@H](CO)O2)c(=O)[nH]c1=O,,>1000 µM
O=c1c(O)c(-c2ccc(O)cc2O)oc2cc(O)cc(O)c12,,100 µg/mL
C/C=C(/C)C(=O)OC1c2cc3c(c4c2[C@](C(=O)C(=O)OC)(CO4)/C(=C\C(=O)OC)C[C@@H](C)[C@H]1C)OCO3,MTT,>200 µg/mL
Oc1cc(O)c2c(c1)O[C@H](c1ccc(O)c(O)c1)[C@H](O)C2,MTT,>200 µg/mL
C/C=C/C(=O)O[C@@H]1[C@@H](O)[C@]2(OC(C)=O)[C@H]([C@@H]3C=C(COC(C)=O)C[C@]4(O)C(=O)C(C)=C[C@H]4[C@@]13O)C2(C)C,MTT,>200 µM
Oc1cc(O)c2c(c1)O[C@H](c1ccc(O)c(O)c1)[C@H](O)[C@H]2c1c(O)cc2c(c1O)C[C@@H](O)[C@@H](c1ccc(O)c(O)c1)O2,MTT,>200 µg/mL
CC(C)(C)C(=O)c1sc(C(=O)NCc2ccccc2)c(O)c1O,resazurin,25 µM
C=C1C([C@@H](C)[C@H]2CC=C(C)C(=O)O2)=CC[C@]2(C)[C@H]1C[C@]1(O)C=C3C=CC(=O)OC(C)(C)[C@@H]3[C@H](OC(C)=O)C[C@@H]21,MTT,7.3 µg/mL
Cc1cn([C@H]2C[C@H](N=[N+]=[N-])[C@@H](COP(=O)(OCc3ccc(OC(=O)C(C)(C)C)cc3)OC[C@H]3CC[C@@H](n4cnc5c(=O)[nH]cnc54)O3)O2)c(=O)[nH]c1=O,,55 µM
CC(=O)O[C@@H]1[C@@H](C)[C@@]2(O)[C@@H](C=C(CO)C[C@]3(O)C(=O)C(C)=C[C@@H]23)[C@@H]2C(C)(C)[C@]12OC(=O)CCCCn1ccc(=O)n(CCCCOC(=O)[C@@]2(C)CC[C@]3(C)CC[C@]4(C)C(=CC(=O)[C@@H]5[C@@]6(C)CC[C@H](C)C(C)(C)[C@@H]6CC[C@]54C)[C@@H]3C2)c1=O,MTT,>200 µM
O=c1cc(-c2ccccc2)oc2cc(O)c(O)c(O)c12,,50 µg/mL
CCCCCCCCCC(=O)O[C@@H]1[C@@H](C)[C@@]2(O)[C@@H](C=C(CO)C[C@]3(O)C(=O)C(C)=C[C@@H]23)[C@@H]2C(C)(C)[C@]12OC(=O)CCCCCCCCC,MTT,>200 µM
O=C(/C=C/c1ccc(O)cc1)O[C@@H]1Cc2c(O)cc(O)cc2O[C@@H]1c1ccc(O)c(O)c1,MTT,24.57 µg/mL
Cc1ccnc2c1NC(=O)c1cccnc1N2C1CC1,,321 µM
O=c1c(O)c(-c2ccc(O)c(O)c2)oc2cc(O)cc(O)c12,MTT,87.8 µg/mL
CC(C)(C)C(=O)c1sc(C(=O)NCCc2ccccc2)c(O)c1O,resazurin,>12.5 µM
CC(C)C[C@H](NC(=O)[C@H](CC(=O)O)NC(=O)[C@@H](N)Cc1ccc(O)cc1)C(=O)N[C@@H](CC(=O)O)C(=O)N[C@@H](Cc1ccc(O)cc1)C(=O)N[C@@H](Cc1ccc(O)cc1)C(=O)O,,>1000 µg/mL
CCCCCCCCCCCCC(=O)O[C@@H]1[C@@H](C)[C@@]2(O)[C@@H](C=C(CO)C[C@]3(O)C(=O)C(C)=C[C@@H]23)[C@@H]2C(C)(C)[C@]12OC(=O)CCCCCCCCCCCC,MTT,>200 µM
Cc1cn([C@H]2C[C@H](N=[N+]=[N-])[C@@H](CO)O2)c(=O)[nH]c1=O,MTT,>500 µg/mL
Cc1cn([C@H]2C[C@H](N=[N+]=[N-])[C@@H](CO)O2)c(=O)[nH]c1=O,,2905 µM
CCCC(=O)Oc1ccc(COP(=O)(OC[C@@H]2O[C@H](n3cc(C)c(=O)[nH]c3=O)C[C@H]2N=[N+]=[N-])OC[C@H]2O[C@@H](n3cc(C)c(=O)[nH]c3=O)C[C@@H]2N=[N+]=[N-])cc1,,75 µM
COc1cc(-c2oc3cc(O)cc(O)c3c(=O)c2O)ccc1O,,>100 µg/mL
COC1=C(OC)C(=O)C23COc4c5c(cc(c42)[C@@H](OC(C)=O)[C@@H](C)[C@@H](C)CC3=C1)OCO5,MTT,99.7 µg/mL

For reference, 4 entries again:

structure,read by,value
Cc1cn([C@H]2C[C@H](N=[N+]=[N-])[C@@H](CO)O2)c(=O)[nH]c1=O,MTT,>500 µg/mL
CC(C)Oc1ccc(Cc2ccccc2)cc1C(=O)CC(=O)C(=O)O,resazurin,50 µM
Cc1cn([C@H]2C[C@H](N=[N+]=[N-])[C@@H](COP(=O)(OCc3ccc(OC(=O)C(C)(C)C)cc3)OC[C@H]3CC[C@@H](n4cnc5c(=O)[nH]cnc54)O3)O2)c(=O)[nH]c1=O,,55 µM
Oc1cc(O)c2c(c1)O[C@H](c1ccc(O)c(O)c1)[C@H](O)[C@H]2c1c(O)cc2c(c1O)C[C@@H](O)[C@@H](c1ccc(O)c(O)c1)O2,MTT,>200 µg/mL